Results of unrelated studies side by side (data: NIAID ChemDB).

Shared fields: growth or infection tests; species: Aspergillus fumigatus

Rows are shuffled and stem from different studies.

structure | setting | read by | strain | read-out | value
C[C@@H](N1CCN(c2ccc(-n3cnnn3)cc2)C1=O)[C@](O)(Cn1cncn1)c1ccc(F)cc1F | - | - | TIMM1728 | MIC | >64 µg/mL
CC(=O)OCC1C=C(c2cccc(Cl)c2)C(=O)O1 | - | - | 12 isolates | MIC90 | 2 µg/mL
C[C@@H](c1ncncc1F)[C@](O)(Cn1cncn1)c1ccc(F)cc1F | - | - | 3 clinical isolates | MIC50 | 0.5 µg/mL
Cc1noc(NS(=O)(=O)c2ccc(N)cc2)c1C | - | - | IFM 47450 | MIC | 128 µg/mL
C[C@@H](n1ccn(-c2ccc(C(F)(F)F)cc2)c1=O)C(O)(Cn1cncn1)c1ccc(F)cc1F | - | - | IFO6344 | MIC | 4 µg/mL
C[C@@H](N1CCN(c2ccc(-n3cnnn3)cc2)C1=O)[C@@](O)(Cn1cncn1)c1ccc(F)cc1F | - | - | TIMM1728 | MIC | >64 µg/mL
C[C@@H](n1ccn(-c2ccc(F)cc2)c1=O)C(O)(Cn1cncn1)c1ccc(F)cc1F | - | - | 437 | MIC | 16 µg/mL
C[C@H]1[C@H](O)[C@@H](C)/C=C/C=C/C=C/C=C/C=C/C=C/C=C/[C@H](O[C@@H]2O[C@H](C)[C@@H](O)[C@H](N)[C@@H]2O)C[C@@H]2O[C@](O)(C[C@@H](O)C[C@@H](O)CC[C@H](O)[C@@H](O)C[C@@H](O)CC(=O)O[C@H]1C)C[C@H](O)[C@H]2C(=O)O | - | - | 150 clinical isolates | MIC50 | 1 µg/mL
CN[C@@H]1[C@H](O[C@@H]2OC[C@@H](O)[C@H](O)[C@H]2O)[C@@H](O)[C@H](O[C@H]2c3cc(C)c(C(=O)NCC(=O)O)c(O)c3-c3c(cc4c(c3O)C(=O)c3cc(OC)cc(O)c3C4=O)[C@@H]2O)O[C@@H]1CO | - | - | IAM2530 | MIC | 6.3 µg/mL
C[C@@H](c1ncncc1F)[C@](O)(Cn1cncn1)c1ccc(F)cc1F | - | - | 28 isolates | Geometric mean MIC | 0.05 µg/mL
Nc1ccc(S(=O)(=O)Nc2ccnn2-c2ccccc2)cc1 | - | - | IFM 53412 | MIC | 64 µg/mL
CCCCCCCCCCCCCCCC(=O)NC(CCCN)C(=O)NC(CCCN)C(N)=O | - | broth dilution | ATCC 42203 | MIC | 6.25 µg/mL
C[C@@H](N1CCN(c2ccc(OC(F)(F)C(F)F)cc2)C1=O)C(O)(Cn1cncn1)c1ccccc1F | - | - | 437 | MIC | 0.5 µg/mL
COc1cc(O)c2c(c1)C(=O)c1c(cc3c(c1O)-c1c(cc(C)c(C(=O)NC(CO)C(=O)O)c1O)[C@H](OC1OC(C)C(O)C(OC4OCC(O)C(O)C4O)C1O)C3O)C2=O | - | - | 35 isolates | Geometric mean MIC | 8 µg/mL
C[C@H]1[C@H](O)[C@@H](C)/C=C/C=C/C=C/C=C/C=C/C=C/C=C/[C@H](O[C@@H]2O[C@H](C)[C@@H](O)[C@H](N)[C@@H]2O)C[C@@H]2O[C@](O)(C[C@@H](O)C[C@@H](O)CC[C@H](O)[C@@H](O)C[C@@H](O)CC(=O)O[C@H]1C)C[C@H](O)[C@H]2C(=O)O | - | - | - | MIC90 | 0.5 µg/mL
C[C@@H](N1CCN(c2ccc(OCC(F)(F)C(F)F)cc2)C1=O)C(O)(Cn1cncn1)c1ccc(F)cc1F | - | - | 437 | MIC | 0.5 µg/mL
CCN1CCC(O)(/C=C/c2ccc(Cl)cc2)C(C(=O)/C=C/c2ccc(Cl)cc2)C1 | - | - | 20 strains | MIC90 | 11.68 µg/mL
Cc1ccc(C(C)C)cc1O | - | - | F17 | MIC | 0.16 µg/mL
COc1cccc(C2=CC(C)OC2=O)c1 | - | - | 231 | MIC | >125 µM
C[C@@H](n1ccn(-c2ccc(OC(F)(F)C(F)F)cc2)c1=O)C(O)(Cn1cncn1)c1ccc(F)cc1F | - | - | 437 | MIC | 2 µg/mL
CC1C=C(c2ccc(F)c(F)c2)C(=O)O1 | - | - | 231 | MIC | 62.5 µM
C[C@@H](n1ccn(-c2ccc(OC(F)(F)C(F)F)cc2)c1=O)C(O)(Cn1cncn1)c1ccccc1F | - | - | 437 | MIC | 2 µg/mL
CCCCCCCCCC(=O)NC(CCCN)C(=O)NC(CCCN)C(=O)NC(CCCN)C(=O)NC(CCCN)C(N)=O | - | broth dilution | ATCC 42203 | MIC | 50 µg/mL
CC(=O)OCC1C=C(c2ccc(Br)cc2)C(=O)O1 | - | - | 12 isolates | MIC90 | 1 µg/mL
Cc1nnc(NS(=O)(=O)c2ccc(N)cc2)s1 | - | - | IFM 47450 | MIC | ≥256 µg/mL
C[C@@H](c1ncncc1F)[C@](O)(Cn1cncn1)c1ccc(F)cc1F | - | broth dilution | - | MIC50 | 0.25 µg/mL
C[C@@H]1CCC2(OC1)OC1CC3C4C[C@H](O)[C@H]5C[C@@H](O)CC[C@]5(C)C4CC(=O)[C@]3(C)C1[C@@H]2C | - | - | ATCC 90906 | MIC | 20 µg/mL
Nc1ncccc1-c1cc(Cc2ccc(COc3ccccn3)cc2)no1 | 90% human serum | broth dilution | IFM 51126 | MIC50 | 2 µg/mL
CCCCCCCCCCCCCCCC(=O)NC(CCCN)C(N)=O | - | broth dilution | ATCC 42203 | MIC | >100 µg/mL
CCCCCOc1ccc(-c2cc(-c3ccc(C(=O)N[C@H]4C[C@@H](O)[C@@H](O)NC(=O)[C@@H]5[C@@H](O)[C@@H](C)CN5C(=O)[C@H]([C@H](O)CC(N)=O)NC(=O)[C@H]([C@H](O)[C@@H](O)c5ccc(O)c(OS(=O)(=O)O)c5)NC(=O)[C@@H]5C[C@@H](O)CN5C(=O)[C@H]([C@@H](C)O)NC4=O)cc3)no2)cc1 | - | - | 17 isolates | MIC50 | ≤0.0078 µg/mL
CC1C=C(c2ccc([N+](=O)[O-])cc2)C(=O)O1 | - | - | 231 | MIC | >125 µM
CCCCCOc1ccc(-c2ccc(-c3ccc(C(=O)N[C@H]4C[C@@H](O)[C@@H](O)NC(=O)[C@@H]5[C@@H](O)[C@@H](C)CN5C(=O)[C@H]([C@H](C)O)NC(=O)[C@H]([C@H](O)[C@@H](O)c5ccc(O)cc5)NC(=O)[C@@H]5C[C@@H](O)CN5C(=O)[C@H]([C@H](C)O)NC4=O)cc3)cc2)cc1 | - | - | 10AF | MFC | >100 µg/mL
CC1C=C(c2cccc(Br)c2)C(=O)O1 | - | - | 231 | MIC | >125 µM
CCCCCCCCCCCCCCCCCC(=O)NC(CCCN)C(=O)NC(CCCN)C(=O)NC(CCCN)C(=O)NC(CCCN)C(=O)NC(CCCN)C(N)=O | - | broth dilution | ATCC 42203 | MIC | 3.1 µg/mL
CC1C=C(c2ccccc2Cl)C(=O)O1 | - | - | 231 | MIC | >125 µM
Nc1[nH]c(=O)ncc1F | - | - | 17 isolates | MIC90 | 64 µg/mL
CC1C=C(c2ccc(Cl)cc2)C(=O)O1 | - | - | 231 | MIC | >125 µM
COc1cc(NS(=O)(=O)c2ccc(N)cc2)nc(OC)n1 | - | - | IFM 53412 | MIC | ≥256 µg/mL

3 of the rows above, restated:

{"structure": "C[C@@H](N1CCN(c2ccc(OCC(F)(F)C(F)F)cc2)C1=O)C(O)(Cn1cncn1)c1ccc(F)cc1F", "strain": "437", "read-out": "MIC", "value": "0.5 µg/mL"}
{"structure": "COc1cccc(C2=CC(C)OC2=O)c1", "strain": "231", "read-out": "MIC", "value": ">125 µM"}
{"structure": "C[C@@H](n1ccn(-c2ccc(OC(F)(F)C(F)F)cc2)c1=O)C(O)(Cn1cncn1)c1ccc(F)cc1F", "strain": "437", "read-out": "MIC", "value": "2 µg/mL"}

A number after MIC or MFC names an inhibition level or a share of isolates. Blank or dashed fields: not listed here.